Results: paper PMC6521208

System: CC(=O)Oc1ccc([N+](=O)[O-])cc1
Assay: purified protein
Conditions: 50 mM Tris-HCl pH 8.0, 1% Triton X-100, 37 °C, substrate range printed 1.5 to 25 uM

## CesH (Bacillus paranthracis)
  Km: 39.6 µM
